Results from doi:10.1101/2024.06.18.599654v1.

Tests used:
[1] = system: CC(=O)Oc1ccc([N+](=O)[O-])cc1; assay: purified protein; conditions: pH 8.0; 30.0 °C
[2] = system: CCCC(=O)Oc1ccc([N+](=O)[O-])cc1; assay: purified protein; conditions: pH 8.0; 30.0 °C

## PE11 (LipX; Rv1169c) (Mycobacterium tuberculosis H37Rv)
[1]
  Km: 20.362 ± 5.372 µM
[2]
  Km: 6.929 ± 0.3193 µM
